Source: PubChem BioAssay AID588689 (Southern Research Specialized Biocontainment Screening …, 2011)
Some of the results follow. Results with a measured potency or affinity are listed apart. Activity calls are given as the source filed them. No stated cut-off is given here; in the data, inconclusive means inhibition above about 29% without an active follow-up result; inactive means below that.

The chains behind the UniProt entries cited, without tags or fusion partners.
UniProt P29991, whole entry: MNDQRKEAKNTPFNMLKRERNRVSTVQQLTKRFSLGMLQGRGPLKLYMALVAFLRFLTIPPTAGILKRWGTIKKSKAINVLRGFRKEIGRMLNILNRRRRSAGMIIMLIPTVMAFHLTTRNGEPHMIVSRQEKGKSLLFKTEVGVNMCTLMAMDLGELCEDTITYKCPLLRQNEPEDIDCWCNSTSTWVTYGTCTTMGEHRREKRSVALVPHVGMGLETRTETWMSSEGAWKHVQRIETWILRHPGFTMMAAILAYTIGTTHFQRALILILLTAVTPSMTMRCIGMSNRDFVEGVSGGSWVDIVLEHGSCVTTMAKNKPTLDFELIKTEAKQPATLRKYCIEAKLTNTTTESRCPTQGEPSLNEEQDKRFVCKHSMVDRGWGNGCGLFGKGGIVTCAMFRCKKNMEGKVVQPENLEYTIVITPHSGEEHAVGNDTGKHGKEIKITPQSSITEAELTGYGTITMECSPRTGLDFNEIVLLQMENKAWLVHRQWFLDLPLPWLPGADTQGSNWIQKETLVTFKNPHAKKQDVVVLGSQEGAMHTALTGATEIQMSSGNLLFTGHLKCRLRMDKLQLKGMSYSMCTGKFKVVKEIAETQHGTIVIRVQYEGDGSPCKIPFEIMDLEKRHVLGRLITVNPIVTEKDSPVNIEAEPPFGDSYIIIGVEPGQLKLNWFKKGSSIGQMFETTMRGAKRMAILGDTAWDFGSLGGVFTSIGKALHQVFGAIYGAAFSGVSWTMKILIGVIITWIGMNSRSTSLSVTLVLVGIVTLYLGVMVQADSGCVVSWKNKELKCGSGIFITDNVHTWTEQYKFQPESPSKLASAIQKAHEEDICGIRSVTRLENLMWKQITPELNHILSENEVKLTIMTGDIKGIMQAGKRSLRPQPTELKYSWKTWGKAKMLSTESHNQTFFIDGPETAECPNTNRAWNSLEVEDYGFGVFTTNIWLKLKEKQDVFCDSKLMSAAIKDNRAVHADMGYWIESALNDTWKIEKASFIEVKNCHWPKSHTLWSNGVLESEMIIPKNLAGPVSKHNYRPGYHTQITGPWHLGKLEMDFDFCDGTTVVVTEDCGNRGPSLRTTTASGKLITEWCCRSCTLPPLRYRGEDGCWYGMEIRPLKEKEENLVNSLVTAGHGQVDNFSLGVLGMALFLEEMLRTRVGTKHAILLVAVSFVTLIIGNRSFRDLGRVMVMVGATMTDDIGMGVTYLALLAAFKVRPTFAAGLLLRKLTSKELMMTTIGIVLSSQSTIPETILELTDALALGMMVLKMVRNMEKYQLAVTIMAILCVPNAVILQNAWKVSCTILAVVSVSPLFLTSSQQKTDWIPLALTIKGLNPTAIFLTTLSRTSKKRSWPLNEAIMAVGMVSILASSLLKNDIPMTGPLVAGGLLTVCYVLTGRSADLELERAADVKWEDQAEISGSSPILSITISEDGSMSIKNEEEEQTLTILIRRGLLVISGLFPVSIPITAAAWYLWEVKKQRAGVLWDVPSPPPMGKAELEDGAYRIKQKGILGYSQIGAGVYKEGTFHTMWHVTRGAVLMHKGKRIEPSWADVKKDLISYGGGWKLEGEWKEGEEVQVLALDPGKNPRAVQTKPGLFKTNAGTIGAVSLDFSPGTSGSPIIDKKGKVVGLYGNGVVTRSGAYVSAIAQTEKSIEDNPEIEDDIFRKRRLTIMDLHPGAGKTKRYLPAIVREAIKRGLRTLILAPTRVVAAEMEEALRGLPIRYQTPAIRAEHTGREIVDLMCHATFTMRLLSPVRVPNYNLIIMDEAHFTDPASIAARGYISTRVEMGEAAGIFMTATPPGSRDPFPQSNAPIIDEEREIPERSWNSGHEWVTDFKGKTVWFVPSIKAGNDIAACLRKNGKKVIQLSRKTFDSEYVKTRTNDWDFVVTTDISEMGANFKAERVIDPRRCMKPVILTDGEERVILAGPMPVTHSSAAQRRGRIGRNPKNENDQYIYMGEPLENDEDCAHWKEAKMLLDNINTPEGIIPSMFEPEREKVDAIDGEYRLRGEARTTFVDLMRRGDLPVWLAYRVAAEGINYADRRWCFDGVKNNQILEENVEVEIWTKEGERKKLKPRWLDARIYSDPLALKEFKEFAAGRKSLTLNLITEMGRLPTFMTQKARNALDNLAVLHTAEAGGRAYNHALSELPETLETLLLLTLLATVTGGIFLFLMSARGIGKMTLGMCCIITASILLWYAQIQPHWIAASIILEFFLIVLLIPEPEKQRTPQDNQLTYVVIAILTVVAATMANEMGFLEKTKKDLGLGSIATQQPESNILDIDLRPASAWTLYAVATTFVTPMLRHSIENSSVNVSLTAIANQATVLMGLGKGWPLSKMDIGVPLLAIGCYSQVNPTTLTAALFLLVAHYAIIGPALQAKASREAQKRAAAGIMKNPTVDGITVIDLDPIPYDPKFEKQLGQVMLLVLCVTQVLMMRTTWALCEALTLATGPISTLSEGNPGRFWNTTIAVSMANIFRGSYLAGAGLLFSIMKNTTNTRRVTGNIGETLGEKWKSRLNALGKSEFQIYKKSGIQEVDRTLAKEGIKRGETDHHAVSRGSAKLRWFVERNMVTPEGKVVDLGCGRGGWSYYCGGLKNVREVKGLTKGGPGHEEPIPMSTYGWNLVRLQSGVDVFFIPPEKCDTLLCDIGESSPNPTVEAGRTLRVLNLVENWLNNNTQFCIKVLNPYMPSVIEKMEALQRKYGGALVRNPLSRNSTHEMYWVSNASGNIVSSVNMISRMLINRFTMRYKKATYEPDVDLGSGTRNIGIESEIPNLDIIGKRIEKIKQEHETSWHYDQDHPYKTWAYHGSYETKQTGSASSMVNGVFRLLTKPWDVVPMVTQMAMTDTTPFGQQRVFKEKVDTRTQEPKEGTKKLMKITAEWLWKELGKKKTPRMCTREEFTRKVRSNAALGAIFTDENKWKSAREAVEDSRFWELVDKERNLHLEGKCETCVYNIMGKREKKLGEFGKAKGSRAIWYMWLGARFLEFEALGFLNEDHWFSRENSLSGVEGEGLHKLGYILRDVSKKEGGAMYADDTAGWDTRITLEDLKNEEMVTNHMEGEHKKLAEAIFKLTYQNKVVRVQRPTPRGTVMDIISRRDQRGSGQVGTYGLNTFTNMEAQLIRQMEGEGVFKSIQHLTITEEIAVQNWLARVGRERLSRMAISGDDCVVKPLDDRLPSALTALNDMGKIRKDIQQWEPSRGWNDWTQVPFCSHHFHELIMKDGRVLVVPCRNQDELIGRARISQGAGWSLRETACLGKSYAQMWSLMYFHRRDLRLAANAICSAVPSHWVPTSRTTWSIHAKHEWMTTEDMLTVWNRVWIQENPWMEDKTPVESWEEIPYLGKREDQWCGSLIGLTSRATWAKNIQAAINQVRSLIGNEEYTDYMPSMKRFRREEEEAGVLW

Biological target: Genome polyprotein (Dengue virus type 2 (strain 16681-PDK53)) (UniProt P29991)
Test: flavivirus cap methylation enzyme inhibition – biochemical, confirmation dose response, primary screen (AID 588689)
Conditions: Dengue-2 NS5 methyltransferase capping enzyme assay, at 25 µM, active compounds read high

SMILES	inhibition
CN(C)c1cccc(C(=O)NCC2(N3CCCCC3)CCCCC2)c1	inactive: -9.15%
CC(C)c1ccc(NC2CCN(C(=O)OC(C)(C)C)CC2)cc1	inactive: -1.46%
COc1cc(OC)c(C(=O)NCC2(N(C)C)CCCCC2)cc1OC	inactive: -0.65%
O=C(NCC1(N2CCOCC2)CCCCC1)c1cc(F)c(F)cc1Cl	inactive: -7.51%
O=C(NCC1(N2CCCCC2)CCCCC1)c1cccc(C(F)(F)F)c1	inactive: -1.65%
CN1CCN(CCOC(=O)C(O)(c2ccccc2)c2ccccc2)CC1	inactive: 1.29%
COc1ccc(NC2CCN(C(=O)OC(C)(C)C)CC2)cc1	inactive: -10.3%
CC(C)c1ccc(C(=O)NCC2(N3CCOCC3)CCCCC2)cc1	inactive: 2.22%
COc1cc(C(=O)NCC2(N3CCCCC3)CCCCC2)ccc1OC(F)F	inactive: 13.4%
O=C(NCC1(N2CCOCC2)CCCCC1)c1cc(=O)[nH]c2ccccc12	inactive: -0.68%
O=C(NCC1(N2CCCCC2)CCCCC1)c1ccc(OC(F)F)cc1	inactive: -14.7%
CSc1ccc(C(=O)NCC2(N3CCOCC3)CCCCC2)cc1	inactive: -10.1%
O=C(NCC1(N2CCCCC2)CCCCC1)c1cccc([N+](=O)[O-])c1	inactive: 2.37%
CCN1CCC(Nc2ccc(Cl)cc2)CC1	inactive: -3.88%
N#CC1(Nc2ccccc2)CCN(CCc2ccccc2)CC1	inactive: -3.43%
c1ccc(CN2CCC(Nc3ccccc3)CC2)cc1	inactive: -4.8%
CCCN1CCC(Nc2cc(OC)cc(OC)c2)CC1	inactive: 26%
Cc1cc(N(CCCl)CCCl)ccc1C=O	inactive: 3.09%
CN(C)C1(CNC(=O)c2cccc(C#N)c2)CCCCC1	inactive: -2.61%
CC(C)(C)OC(=O)N1CCC(N(C(=O)c2ccccc2)c2ccc(Cl)cc2)CC1	inactive: -0.68%
N#Cc1ccc(C(=O)NCC2(N3CCCCC3)CCCCC2)cc1	inactive: -1.48%
N/C(=N\O)c1c(N)no[n+]1[O-]	inactive: -11.7%
CCOC(=O)N1CCC(Nc2ccc(C)cc2)CC1	inactive: -6.48%

SMILES	inhibition
O=C(OC1CN2CCC1CC2)C1c2ccccc2C=Cc2ccccc21 (stereo not given)	inactive: 2.94%
O=C(NCC1(N2CCOCC2)CCCCC1)c1cc(Br)ccc1Cl	inactive: -7.08%
COc1cc(C(=O)NCC2(N3CCOCC3)CCCCC2)cc(OC)c1C	inactive: 1.1%
COc1ccc(C(=O)NCC2(N3CCOCC3)CCCCC2)cc1OC	inactive: -7.12%
CCC(CO)(C(=O)OC1CN2CCC1CC2)c1ccccc1 (stereo not given)	inactive: 0%
COc1cc(OC)cc(C(=O)NCC2(N3CCOCC3)CCCCC2)c1	inactive: -3.9%
COc1cccc(C(=O)N(c2cc(C)cc(C)c2)C2CCN(C(=O)OC(C)(C)C)CC2)c1	inactive: -4.57%
CCOc1ncccc1C(=O)NCC1(N2CCOCC2)CCCCC1	inactive: -6.94%
CN1CCC(Nc2ccc(F)c(Cl)c2)CC1	inactive: 0.79%
CCCOc1ccc(C(=O)NCC2(N(C)C)CCCCC2)cc1	inactive: -1.98%
CC(C)(C)OC(=O)N1CCC(Nc2ccccc2)CC1	inactive: -2.34%
O=C(O)C1(Nc2ccccc2)CCN(Cc2ccccc2)CC1	inactive: 0%
Cc1ccccc1NC1(C#N)CCN(Cc2ccccc2)CC1	inactive: 0.81%
CCN1CCC(Nc2cccc(F)c2)CC1	inactive: 0.74%
O=C(NCC1(N2CCCCC2)CCCCC1)c1ccco1	inactive: -1.1%
CN(C)c1ccc(C(=O)NCC2(N3CCCCC3)CCCCC2)cc1	inactive: 0.76%
Cn1c(=O)[nH]cc(N(CCCl)CCCl)c1=O	inactive: 3.11%
COc1cc(OC)cc(C(=O)NCC2(N3CCCCC3)CCCCC2)c1	inactive: -5.84%
CC(=O)N(c1ccccc1)C1CCNCC1	inactive: -5.05%
Cc1ccc(NC2(C#N)CCN(Cc3ccccc3)CC2)cc1	inactive: 9.55%
Cc1ccc(C(=O)NCC2(N3CCCCC3)CCCCC2)o1	inactive: -6.48%
Fc1ccccc1NC1CCN(Cc2ccccc2)CC1	inactive: -4.83%
